Measurements as given in ChEMBL document CHEMBL1201862, “PubChem BioAssay data set” (2004).
Some of the results follow. Only a part of the results of these assays is listed, not drawn at random. Active and inactive are the calls of the source. The rule behind the calls is not given here.

experiment: qHTS for Stage-Specific Inhibitors of Vaccinia Orthopoxvirus: Venus Reporter Primary qHTS.; type: functional

Structure (SMILES)	Potency
O=C(OC1CN2CCC1CC2)C12CC3CC(CC(C3)C1)C2 (stereo unspecified)	inactive
